This note sets out measurements from patent US20240294572A1, “Antimicrobial Peptides” (priority 2021, published 2024).

The subject of this series is human red blood cells (hRBCs). Format: cell-based. Particulars: cell selectivity index = HC50/MIC against S. aureus. As to the method:
Hemolytic assays of peptides were performed as described (Lakshmaiah, et al. (2020) Proc. Natl. Acad. Sci., 117:19446-19454). Briefly, human red blood cells (hRBCs) were obtained from UNMC Blood Bank. The cells were washed 3× with isotonic saline (0.9% NaCl) and diluted to 2% (v/v). Peptides at various concentrations were added to the 2% blood cells and incubated at 37° C. for 1 hour. Post-incubation, the plates were spun at 2000 rpm for 10 minutes; aliquots of the supernatant were carefully transferred to a fresh 96-well microplate. The amount of cells lysed is proportional to the hemoglobin released and was measured at 545 nm using a ChroMate® microplate reader (Awareness Technology, FL). The percent lysis was calculated by assuming 100% release when human blood cells were treated with 1% Triton™ X-100, and 0% release when incubated with PBS. The peptide concentration that caused 50% lysis of hRBCs is defined as HC50. The cell selectivity index (CSI) was calculated as the ratio between HC50 and the MIC of the corresponding peptide against MRSA.

Non-standard residues stand in square brackets, D forms with d. Residues, ends and D or L forms follow the SMILES beside them. *: point of attachment. Myristoyl = CCCCCCCCCCCCCC(=O)*; Lauroyl = CCCCCCCCCCCC(=O)*; Decanoyl = CCCCCCCCCC(=O)*; Octanoyl = CCCCCCCC(=O)*; Hexanoyl = CCCCCC(=O)* Bounds are passed on as bounds.

`CCCCCC(=O)N[C@@H](CCCCN)C(=O)N[C@@H](CCCNC(=N)N)C(=O)N[C@H](C(=O)N[C@@H](Cc1c[nH]c2ccccc12)C(=O)N[C@@H](CCC(N)=O)C(=O)N[C@@H](CCCNC(=N)N)C(=O)N[C@H](C(=O)N[C@@H](CCCCN)C(=O)N[C@@H](CC(=O)O)C(=O)N[C@@H](Cc1ccccc1)C(N)=O)[C@@H](C)CC)[C@@H](C)CC` [Peptide C6-KR10] (Hexanoyl-KRIWQRIKDF-NH2): the CSI is greater than 8.

Turning to `CCCCCC(=O)N[C@@H](CCCCN)C(=O)N[C@@H](CCCNC(=N)N)C(=O)N[C@H](C(=O)N[C@@H](Cc1c[nH]c2ccccc12)C(=O)N[C@@H](CCC(N)=O)C(=O)N[C@@H](CCCNC(=N)N)C(=O)N[C@H](C(=O)N[C@@H](CCCCN)C(=O)N[C@@H](CC(=O)O)C(=O)N[C@@H](Cc1ccccc1)C(=O)N[C@@H](CC(C)C)C(=O)N[C@@H](CCCNC(=N)N)C(N)=O)[C@@H](C)CC)[C@@H](C)CC` [Peptide C6-KR12] (Hexanoyl-KRIWQRIKDFLR-NH2), the CSI is on record as 16.

The compound `CCCCCCCC(=O)N[C@@H](CCCCN)C(=O)N[C@@H](CCCNC(=N)N)C(=O)N[C@H](C(=O)N[C@@H](Cc1c[nH]c2ccccc12)C(=O)N[C@@H](CCC(N)=O)C(=O)N[C@@H](CCCNC(=N)N)C(=O)N[C@H](C(=O)N[C@@H](CCCCN)C(N)=O)[C@@H](C)CC)[C@@H](C)CC` [Peptide C8-KR8] (Octanoyl-KRIWQRIK-NH2) gave a CSI of 32.

Regarding `CCCCCCCC(=O)N[C@@H](CCCCN)C(=O)N[C@@H](CCCNC(=N)N)C(=O)N[C@H](C(=O)N[C@@H](Cc1c[nH]c2ccccc12)C(=O)N[C@@H](CCC(N)=O)C(=O)N[C@@H](CCCNC(=N)N)C(=O)N[C@H](C(=O)N[C@@H](CCCCN)C(=O)N[C@@H](CC(=O)O)C(=O)N[C@@H](Cc1ccccc1)C(N)=O)[C@@H](C)CC)[C@@H](C)CC` [Peptide C8-KR10] (Octanoyl-KRIWQRIKDF-NH2), the CSI is 40-80.

Take `CCCCCCCC(=O)N[C@H](CCCCN)C(=O)N[C@H](CCCNC(=N)N)C(=O)N[C@@H](C(=O)N[C@H](Cc1c[nH]c2ccccc12)C(=O)N[C@H](CCC(N)=O)C(=O)N[C@H](CCCNC(=N)N)C(=O)N[C@@H](C(=O)N[C@H](CCCCN)C(=O)N[C@H](CC(=O)O)C(=O)N[C@H](Cc1ccccc1)C(N)=O)[C@H](C)CC)[C@H](C)CC` [Peptide C8-KR10d] (Octanoyl-[dK][dR][dI][dW][dQ][dR][dI][dK][dD][dF]-NH2): the CSI is on record as 48.

The compound `CCCCCCCC(=O)N[C@@H](CCCCN)C(=O)N[C@@H](CCCNC(=N)N)C(=O)N[C@H](C(=O)N[C@@H](Cc1c[nH]c2ccccc12)C(=O)N[C@@H](CCC(N)=O)C(=O)N[C@@H](CCCNC(=N)N)C(=O)N[C@H](C(=O)N[C@@H](CCCCN)C(=O)N[C@@H](CC(=O)O)C(=O)N[C@@H](Cc1ccccc1)C(=O)N[C@@H](CC(C)C)C(=O)N[C@@H](CCCNC(=N)N)C(N)=O)[C@@H](C)CC)[C@@H](C)CC` [Peptide C8-KR12] (Octanoyl-KRIWQRIKDFLR-NH2) yielded a CSI of less than 8.

With `CCCCCCCCCC(=O)N[C@@H](CCCCN)C(=O)N[C@@H](CCCNC(=N)N)C(=O)N[C@H](C(=O)N[C@@H](Cc1c[nH]c2ccccc12)C(N)=O)[C@@H](C)CC` [Peptide C10-KR4] (Decanoyl-KRIW-NH2), the CSI came out at 12.

The compound `CCCCCCCCCC(=O)N[C@@H](CCCCN)C(=O)N[C@@H](CCCNC(=N)N)C(=O)N[C@H](C(=O)N[C@@H](Cc1c[nH]c2ccccc12)C(=O)N[C@@H](CCC(N)=O)C(=O)N[C@@H](CCCNC(=N)N)C(N)=O)[C@@H](C)CC` [Peptide C10-KR6] (Decanoyl-KRIWQR-NH2) came in with a CSI greater than 27.

Turning to `CCCCCCCCCC(=O)N[C@@H](CCCCN)C(=O)N[C@@H](CCCNC(=N)N)C(=O)N[C@H](C(=O)N[C@@H](Cc1c[nH]c2ccccc12)C(=O)N[C@@H](CCC(N)=O)C(=O)N[C@@H](CCCNC(=N)N)C(=O)N[C@H](C(=O)N[C@@H](CCCCN)C(N)=O)[C@@H](C)CC)[C@@H](C)CC` [Peptide C10-KR8] (Decanoyl-KRIWQRIK-NH2), the CSI stood at 200.

In the case of `CCCCCCCCCC(=O)N[C@H](CCCCN)C(=O)N[C@H](CCCNC(=N)N)C(=O)N[C@@H](C(=O)N[C@H](Cc1c[nH]c2ccccc12)C(=O)N[C@H](CCC(N)=O)C(=O)N[C@H](CCCNC(=N)N)C(=O)N[C@@H](C(=O)N[C@H](CCCCN)C(N)=O)[C@H](C)CC)[C@H](C)CC` [Peptide C10-KR8d] (Decanoyl-[dK][dR][dI][dW][dQ][dR][dI][dK]-NH2), the CSI was 200.

As to `CCCCCCCCCC(=O)N[C@@H](CCCCN)C(=O)N[C@@H](CCCNC(=N)N)C(=O)N[C@H](C(=O)N[C@@H](Cc1c[nH]c2ccccc12)C(=O)N[C@@H](CCC(N)=O)C(=O)N[C@@H](CCCNC(=N)N)C(=O)N[C@H](C(=O)N[C@@H](CCCCN)C(=O)N[C@@H](CC(=O)O)C(=O)N[C@@H](Cc1ccccc1)C(N)=O)[C@@H](C)CC)[C@@H](C)CC` [Peptide C10-KR10] (Decanoyl-KRIWQRIKDF-NH2), the CSI is recorded as 33.

`CCCCCCCCCC(=O)N[C@@H](CCCCN)C(=O)N[C@@H](CCCNC(=N)N)C(=O)N[C@H](C(=O)N[C@@H](Cc1c[nH]c2ccccc12)C(=O)N[C@@H](CCC(N)=O)C(=O)N[C@@H](CCCNC(=N)N)C(=O)N[C@H](C(=O)N[C@@H](CCCCN)C(=O)N[C@@H](CC(=O)O)C(=O)N[C@@H](Cc1ccccc1)C(=O)N[C@@H](CC(C)C)C(=O)N[C@@H](CCCNC(=N)N)C(N)=O)[C@@H](C)CC)[C@@H](C)CC` [Peptide C10-KR12] (Decanoyl-KRIWQRIKDFLR-NH2) showed a CSI of less than 8.

As for `CCCCCCCCCCCC(=O)N[C@@H](CCCCN)C(=O)N[C@@H](CCCNC(=N)N)C(=O)N[C@H](C(=O)N[C@@H](Cc1c[nH]c2ccccc12)C(N)=O)[C@@H](C)CC` [Peptide C12-KR4] (Lauroyl-KRIW-NH2), the CSI was found to be 10.

`CCCCCCCCCCCC(=O)N[C@@H](CCCCN)C(=O)N[C@@H](CCCNC(=N)N)C(=O)N[C@H](C(=O)N[C@@H](Cc1c[nH]c2ccccc12)C(=O)N[C@@H](CCC(N)=O)C(=O)N[C@@H](CCCNC(=N)N)C(N)=O)[C@@H](C)CC` [Peptide C12-KR6] (Lauroyl-KRIWQR-NH2) came in with a CSI of 24.

Take `CCCCCCCCCCCC(=O)N[C@@H](CCCCN)C(=O)N[C@@H](CCCNC(=N)N)C(=O)N[C@H](C(=O)N[C@@H](Cc1c[nH]c2ccccc12)C(=O)N[C@@H](CCC(N)=O)C(=O)N[C@@H](CCCNC(=N)N)C(=O)N[C@H](C(=O)N[C@@H](CCCCN)C(N)=O)[C@@H](C)CC)[C@@H](C)CC` [Peptide C12-KR8] (Lauroyl-KRIWQRIK-NH2): the CSI is recorded as 24.

`CCCCCCCCCCCC(=O)N[C@@H](CCCCN)C(=O)N[C@@H](CCCNC(=N)N)C(=O)N[C@H](C(=O)N[C@@H](Cc1c[nH]c2ccccc12)C(=O)N[C@@H](CCC(N)=O)C(=O)N[C@@H](CCCNC(=N)N)C(=O)N[C@H](C(=O)N[C@@H](CCCCN)C(=O)N[C@@H](CC(=O)O)C(=O)N[C@@H](Cc1ccccc1)C(N)=O)[C@@H](C)CC)[C@@H](C)CC` [Peptide C12-KR10] (Lauroyl-KRIWQRIKDF-NH2) had a CSI of less than 16.

With `CCCCCCCCCCCC(=O)N[C@@H](CCCCN)C(=O)N[C@@H](CCCNC(=N)N)C(=O)N[C@H](C(=O)N[C@@H](Cc1c[nH]c2ccccc12)C(=O)N[C@@H](CCC(N)=O)C(=O)N[C@@H](CCCNC(=N)N)C(=O)N[C@H](C(=O)N[C@@H](CCCCN)C(=O)N[C@@H](CC(=O)O)C(=O)N[C@@H](Cc1ccccc1)C(=O)N[C@@H](CC(C)C)C(=O)N[C@@H](CCCNC(=N)N)C(N)=O)[C@@H](C)CC)[C@@H](C)CC` [Peptide C12-KR12] (Lauroyl-KRIWQRIKDFLR-NH2), the CSI is listed as less than 4.

`CCCCCCCCCCCCCC(=O)N[C@@H](CCCCN)C(=O)N[C@@H](CCCNC(=N)N)C(=O)N[C@H](C(=O)N[C@@H](Cc1c[nH]c2ccccc12)C(N)=O)[C@@H](C)CC` [Peptide C14-KR4] (Myristoyl-KRIW-NH2): the CSI is given as less than 8.

Turning to `CCCCCCCCCCCCCC(=O)N[C@@H](CCCCN)C(=O)N[C@@H](CCCNC(=N)N)C(=O)N[C@H](C(=O)N[C@@H](Cc1c[nH]c2ccccc12)C(=O)N[C@@H](CCC(N)=O)C(=O)N[C@@H](CCCNC(=N)N)C(N)=O)[C@@H](C)CC` [Peptide C14-KR6] (Myristoyl-KRIWQR-NH2), the CSI is given as less than 8.

`CCCCCCCCCCCCCC(=O)N[C@@H](CCCCN)C(=O)N[C@@H](CCCNC(=N)N)C(=O)N[C@H](C(=O)N[C@@H](Cc1c[nH]c2ccccc12)C(=O)N[C@@H](CCC(N)=O)C(=O)N[C@@H](CCCNC(=N)N)C(=O)N[C@H](C(=O)N[C@@H](CCCCN)C(N)=O)[C@@H](C)CC)[C@@H](C)CC` [Peptide C14-KR8] (Myristoyl-KRIWQRIK-NH2): the CSI was less than 16.

On to `CCCCCCCCCCCCCC(=O)N[C@@H](CCCCN)C(=O)N[C@@H](CCCNC(=N)N)C(=O)N[C@H](C(=O)N[C@@H](Cc1c[nH]c2ccccc12)C(=O)N[C@@H](CCC(N)=O)C(=O)N[C@@H](CCCNC(=N)N)C(=O)N[C@H](C(=O)N[C@@H](CCCCN)C(=O)N[C@@H](CC(=O)O)C(=O)N[C@@H](Cc1ccccc1)C(N)=O)[C@@H](C)CC)[C@@H](C)CC` [Peptide C14-KR10] (Myristoyl-KRIWQRIKDF-NH2), for which the CSI is less than 8.
